Target: Acinetobacter baumannii rAcpA (Acinetobacter baumannii, UniProt A0ABX6CG12)

Substance: Cysteamine S-Phosphate
- inhibition (sensitivity) (PNPP hydrolysis, max. conc. tested 2.0 mM): ~ 19%
- Percent Control (activity in presence/absence of compound x100, at max. conc. tested (Tween 20 3.2 mM; cysteamine S-phosphate 2.0 mM; okadaic acid 0.0001 mM)): 81%

Source: paper PMC8172068 (PLoS ONE, 2021)
